# From patent publication US7544773
# Tested on: ΔCaf1 (Caf1 mutant with a six amino acid deletion close to the N-terminus), Yersinia pestis, P26948 22-170
# Assay: IEF of periplasmic extracts of E. coli DH5α/pΔFM1
substance,measurement,value
ΔCaf1 (Caf1 mutant with a six amino acid deletion close to the N-terminus),result,no binding
